Molecular target: T1, CdtB (subunit of typhoid toxin, as in the crystal structure; 6×His tagged) (Salmonella enterica serovar Typhi, UniProt Q8Z6A7 23-269)
T1 sequence: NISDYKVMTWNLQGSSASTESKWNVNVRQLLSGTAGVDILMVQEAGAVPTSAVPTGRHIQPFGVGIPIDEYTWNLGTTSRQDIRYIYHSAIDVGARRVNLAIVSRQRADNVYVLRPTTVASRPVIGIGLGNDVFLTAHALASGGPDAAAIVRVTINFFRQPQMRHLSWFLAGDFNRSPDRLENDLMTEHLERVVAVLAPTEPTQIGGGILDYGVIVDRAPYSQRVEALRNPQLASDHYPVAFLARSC
Test: crystal structure of typhoid toxin

B1: PltB pentamer (B subunit of typhoid toxin, as in the crystal structure) (other)
chain: EWTGDNTNAYYSDEVISELHVGQIDTSPYFCIKTVKANGSGTPVVACAVSKQSIWAPSFKELLDQARYFYSTGQSVRIHVQKNIWTYPLFVNTFSANALVGLSSCSATQCFGPK
binding result: no binding
